Results of unrelated studies side by side (data: NIAID ChemDB).

Shared fields: whole-cell or culture tests; organism: Aspergillus niger

Inhibition is in % at the dose shown (toxicity tests: loss of growth or viability). Zones are inhibition diameters on agar. Rows are shuffled and stem from different studies. MIC50, MIC90 and the like: level of inhibition, or share of isolates inhibited. ECn is the concentration giving n% inhibition of infection, replication or growth. a–b is a range or a potency band.

{"structure": "c1ccc2ccccc2c1", "measure": "zone", "tested at": "10000 µg/mL", "read by": "agar diffusion / agar", "result": "0.45 mm"}
{"structure": "Cc1ccc(C(C)C)cc1O", "measure": "EC50", "result": "0.6 µg/mL"}
{"structure": "COc1ccc(-c2cc(-c3ccc4oc(=O)c(-c5ccccc5)c(C)c4c3)nc3c2CCc2ccccc2-3)cc1", "measure": "MIC", "strain": "MTCC 282", "read by": "broth dilution / turbidity", "result": "500 µg/mL"}
{"structure": "CC(=O)N(c1ccccc1)c1nc(C)cc(C)n1", "measure": "zone", "tested at": "50 µg/mL", "result": "2.4 mm"}
{"structure": "CC1=CC(=O)c2c(O)cccc2C1=O", "measure": "MFC100", "strain": "CCAM 080002", "read by": "broth dilution", "result": "20 µg/mL"}
{"structure": "Cc1cc(CBr)nc(Nc2ccccc2)n1", "measure": "zone", "tested at": "10 µg/mL", "result": "1.5 mm"}
{"structure": "COc1ccc(/C=C2\\SC(N(C)C)=NC2=O)cc1", "measure": "MIC100", "strain": "ATCC 9029", "read by": "broth dilution", "result": ">250 µg/mL"}
{"structure": "CCCn1[se]c2ccccc2c1=O", "measure": "MIC", "read by": "agar", "result": "15 µg/mL"}
{"structure": "C[C@@H]1[C@H](O)[C@@H](C)/C=C/C=C/CC/C=C/C=C/C=C/C=C/C(O[C@H]2O[C@H](C)[C@@H](O)[C@H](N)[C@@H]2O)CC2O[C@](O)(CC(O)C(O)CCC(O)CC(O)CC(O)CC(=O)O[C@H]1C)CC(O)C2C(=O)O", "measure": "MIC100", "strain": "MTCC 404", "read by": "broth dilution", "result": "62.5 µg/mL"}
{"structure": "Cc1c(-c2ccccc2)c(=O)oc2ccc(-c3cc(-c4ccc(F)cc4)c4c(n3)-c3ccccc3CC4)cc12", "measure": "MIC", "strain": "MTCC 282", "read by": "broth dilution / turbidity", "result": ">1000 µg/mL"}
{"structure": "COc1ccc2c(c1)C(=O)C(c1cccnc1)=[N+]2[O-]", "measure": "MFC", "result": "250 µg/mL"}
{"structure": "Cc1c(-c2ccccc2)c(=O)oc2ccc(-c3cc(-c4ccc(Cl)cc4)c4c(n3)-c3ccccc3CC4)cc12", "measure": "MIC", "strain": "MTCC 282", "read by": "broth dilution / turbidity", "result": ">1000 µg/mL"}
{"structure": "CC(=O)c1cn(Cc2nnn(Cc3nnc(SC4OC(O)C(O)C(O)C4O)n3-c3ccc(Cl)cc3)n2)c2ccccc12", "measure": "MIC99", "read by": "agar", "result": "100 µg/mL"}
{"structure": "O=C(O)c1ccc(O)c(O)c1", "measure": "zone", "tested at": "50000 µg/mL", "read by": "agar diffusion / agar", "result": "0.62 mm"}
{"structure": "O=c1c2ccccc2[se]n1C(CO)CO", "measure": "MIC", "read by": "agar", "result": ">512 µg/mL"}
{"structure": "O=C1NC(=O)C(=Cc2cn(-c3ccccc3)nc2-c2cc3ccc4ccccc4c3oc2=O)C(=O)N1", "measure": "zone", "tested at": "100 µg", "read by": "agar diffusion / agar", "result": "0 mm"}
{"structure": "C=CCc1ccc(O)c(OC)c1", "measure": "MFC", "strain": "IOA-3", "read by": "broth dilution", "result": "320 µg/mL"}
{"structure": "O=C1NC(=S)NC(=O)C1=Cc1cn(-c2ccccc2)nc1-c1cc2cc(Cl)ccc2oc1=O", "measure": "zone", "tested at": "100 µg", "read by": "agar diffusion / agar", "result": "0 mm"}
{"structure": "COc1ccc(C2=[N+]([O-])c3ccccc3C2=O)cc1", "measure": "MFC", "result": ">500 µg/mL"}
{"structure": "Cc1nc(Nc2ccccc2)nc2c1C(=N)C(C#N)CN(Cc1ccccc1)C2", "measure": "zone", "tested at": "10 µg/mL", "result": "1 mm"}
{"structure": "CN(C)CCn1[se]c2ccccc2c1=O", "measure": "MIC", "read by": "agar", "result": ">512 µg/mL"}
{"structure": "O=C1NC(=O)C(=Cc2cn(-c3ccccc3)nc2-c2cc3cc(Cl)ccc3oc2=O)C(=O)N1", "measure": "zone", "tested at": "100 µg", "read by": "agar diffusion / agar", "result": "0 mm"}
{"structure": "CCCCCOc1ccc(-c2ccc(-c3ccc(C(=O)N[C@H]4C[C@@H](O)[C@@H](O)NC(=O)[C@@H]5[C@@H](O)[C@@H](C)CN5C(=O)[C@H]([C@H](C)O)NC(=O)[C@H]([C@H](O)[C@@H](O)c5ccc(O)cc5)NC(=O)[C@@H]5C[C@@H](O)CN5C(=O)[C@H]([C@H](C)O)NC4=O)cc3)cc2)cc1", "measure": "MIC50", "result": "0.015 µg/mL"}
{"structure": "Cc1nc(C)c(CC(O)c2ccc(Cl)cc2)nc1C", "measure": "zone", "tested at": "50000 µg/mL", "read by": "agar diffusion / agar", "result": "1.43 mm"}
{"structure": "Cc1c(-c2ccccc2)c(=O)oc2ccc(-c3cc(-c4ccccc4)c4oc5ccccc5c4n3)cc12", "measure": "MIC", "strain": "MTCC 282", "read by": "broth dilution / turbidity", "result": "500 µg/mL"}
{"structure": "O=C1NC(=S)NC(=O)C1=Cc1cn(-c2ccccc2)nc1-c1cc2cc(Cl)cc(Cl)c2oc1=O", "measure": "zone", "tested at": "150 µg", "read by": "agar diffusion / agar", "result": "0 mm"}
{"structure": "COc1ccc(/C=N/NC(=S)Nc2ccc(C(=O)O)cc2)cc1OC", "measure": "MIC", "read by": "agar diffusion", "result": "1.29 µM"}
{"structure": "C[C@@H](c1ncncc1F)[C@](O)(Cn1cncn1)c1ccc(F)cc1F", "measure": "MIC90", "result": "1–2 µg/mL"}
{"structure": "CC(C)CCCCCOC(=O)c1ccccc1C(=O)OCCCCCC(C)C", "measure": "zone", "tested at": "50000 µg/mL", "read by": "agar diffusion / agar", "result": "0.45 mm"}
{"structure": "CC1=CC=C(C(C)C)CC1", "measure": "EC50", "result": "1.2 µg/mL"}
{"structure": "COc1ccc(-c2cc(-c3ccc4oc(=O)c(-c5ccccc5)c(C)c4c3)nc3c2oc2ccccc23)cc1", "measure": "MIC", "strain": "MTCC 282", "read by": "broth dilution / turbidity", "result": "500 µg/mL"}
{"structure": "FC(F)(F)c1cccc([Se][Se]c2cccc(C(F)(F)F)c2)c1", "measure": "MFC", "read by": "broth dilution", "result": ">64 µg/mL"}
{"structure": "CN(C/C=C/C#CC(C)(C)C)Cc1cccc2ccccc12", "measure": "MIC100", "read by": "broth dilution / agar", "result": "200 µg/mL"}
{"structure": "Cc1ccc(/C=N/NC(=S)Nc2ccc(C(=O)NO)cc2)cc1", "measure": "MIC", "read by": "agar diffusion", "result": "1.11 µM"}
{"structure": "CCCCn1[se]c2ccccc2c1=O", "measure": "MIC", "read by": "agar", "result": "16 µg/mL"}
{"structure": "O=C1NC(=O)C(=Cc2cn(-c3ccccc3)nc2-c2cc3ccccc3oc2=O)C(=O)N1", "measure": "zone", "tested at": "100 µg", "read by": "agar diffusion / agar", "result": "0 mm"}
{"structure": "O=C/C=C/c1ccccc1", "measure": "MFC", "strain": "NRRL 501", "read by": "broth dilution", "result": "160 µg/mL"}
{"structure": "C[C@@H](c1nc(-c2ccc(C#N)cc2)cs1)[C@](O)(Cn1cncn1)c1cc(F)ccc1F", "measure": "MIC50", "result": "0.5–2 µg/mL"}
{"structure": "O=C1C(c2ccc(Cl)cc2)=[N+]([O-])c2cc[n+]([O-])cc21", "measure": "MFC", "result": ">500 µg/mL"}
{"structure": "C[C@@H]1[C@H](O)[C@@H](C)/C=C/C=C/CC/C=C/C=C/C=C/C=C/C(O[C@H]2O[C@H](C)[C@@H](O)[C@H](N)[C@@H]2O)CC2O[C@](O)(CC(O)C(O)CCC(O)CC(O)CC(O)CC(=O)O[C@H]1C)CC(O)C2C(=O)O", "measure": "MFC99.9", "strain": "ATCC 16404", "read by": "broth dilution", "result": "0.78 µg/mL"}
{"structure": "[Al]#[P]", "measure": "MFC", "read by": "agar", "result": ">5 µg/mL"}
{"structure": "COc1ccc(/C=N/NC(=S)Nc2ccc(C(=O)NO)cc2)cc1", "measure": "MIC", "read by": "agar diffusion", "result": "2.88 µM"}
{"structure": "CCOC(=O)n1[se]c2ccccc2c1=O", "measure": "MIC", "read by": "agar", "result": "129 µg/mL"}
{"structure": "C[C@H]1[C@H](O)[C@@H](C)/C=C/C=C/C=C/C=C/C=C/C=C/C=C/[C@H](O[C@@H]2O[C@H](C)[C@@H](O)[C@H](N)[C@@H]2O)C[C@@H]2O[C@](O)(C[C@@H](O)C[C@@H](O)CC[C@H](O)[C@@H](O)C[C@@H](O)CC(=O)O[C@H]1C)C[C@H](O)[C@H]2C(=O)O", "measure": "MIC100", "strain": "ATCC 9029", "read by": "broth dilution", "result": "0.5 µg/mL"}
{"structure": "Oc1cc(O)c2c(c1)O[C@H](c1ccc(O)c(O)c1)[C@@H](O)C2", "measure": "inhibition", "tested at": "1000 µg/mL", "result": "78%"}
{"structure": "C[C@@H]1O[C@@H](OC[C@H]2O[C@@H](Oc3ccc(-c4oc5cc(O)cc(O)c5c(=O)c4O)cc3)[C@H](O)[C@@H](O)[C@@H]2O)[C@H](O)[C@H](O)[C@H]1O", "measure": "zone", "tested at": "50000 µg/mL", "read by": "agar diffusion / agar", "result": "0 mm"}
{"structure": "O=C1C=C(N2CCOCC2)C(=O)c2ccccc21", "measure": "MIC100", "strain": "MTCC 404", "read by": "broth dilution", "result": "62.5 µg/mL"}
{"structure": "O=C1C(c2ccc(Cl)cc2)=[N+]([O-])c2ccccc21", "measure": "MFC", "result": ">50 µg/mL"}
{"structure": "CN(C)C1=NC(=O)/C(=C/c2ccc([N+](=O)[O-])cc2)S1", "measure": "MIC100", "strain": "ATCC 9029", "read by": "broth dilution", "result": ">250 µg/mL"}
{"structure": "CCC(C)CC(C)CCCCCCCCC(=O)N[C@H]1C[C@@H](O)[C@H](NCCN)NC(=O)[C@@H]2[C@@H](O)CCN2C(=O)[C@H]([C@H](O)CCN)NC(=O)[C@H]([C@H](O)[C@@H](O)c2ccc(O)cc2)NC(=O)[C@@H]2C[C@@H](O)CN2C(=O)[C@H]([C@@H](C)O)NC1=O", "measure": "MIC90", "result": "0.125–0.25 µg/mL"}